Pooled drug test results. Numbers come from NIAID ChemDB, via PubChem.

All rows: tests in culture; species: Vesicular stomatitis virus; read by: cytopathic effect; read-out: EC50

ECn is the concentration giving n% inhibition of infection, replication or growth. Conditions beyond the fields shown may differ between rows. An empty or dashed field is not shown.

SMILES,cells,value
C[C@H](Cn1cnc2c(N)ncnc21)OCP(=O)(O)O,,>525 µM
C[C@H]1C[C@@H](n2cnc3c(N)ncnc32)[C@H](O)[C@@H]1O,E6SM,0.7 µg/mL
O=c1[nH]c(=O)n([C@H]2C[C@H](O)[C@@H](CO)O2)cc1/C=C/Br,E6SM,>400 µg/mL
Nc1ncnc2c1ncn2C[C@@H](CO)OCP(=O)(O)O,,>50 µM
Nc1ncnc2c1ncn2C[C@H](O)CO,PRK,20 µg/mL
Nc1nc2c(ncn2C[C@H]2CC[C@@H](CO)C2)c(=O)[nH]1,E6SM,>400 µg/mL
CCCc1cn([C@H]2C[C@H](O)[C@@H](CO)S2)c(=O)[nH]c1=O,E6SM,>50 µM
Nc1ncnc2c1ncn2[C@@H]1OC(C#CI)[C@@H](O)[C@H]1O,E6SM,0.08 µM
Nc1ncnc2c1ncn2[C@@H]1C=C(CO)[C@@H](O)[C@H]1O,PRK,0.02 µg/mL
CCOC(=O)C(CCSC[C@H]1O[C@@H](n2ccc3c(N)ncnc32)[C@H](O)[C@@H]1O)NC(=O)COC,PRK/E6SM,70 µg/mL
CCc1cn([C@H]2C[C@H](O)[C@@H](CO)S2)c(=O)[nH]c1=O,E6SM,>2000 µM
Nc1ncnc2c1ncn2[C@@H]1C=C[C@@H](O)[C@H]1O,PRK,0.2 µg/mL
NC(=O)c1ccnc([C@@H]2O[C@H](CO)[C@@H](O)[C@H]2O)c1,PRK,>400 µg/mL
Nc1cc(OCCOCP(=O)(O)O)nc(N)n1,,>190 µM
O=c1[nH]c(=O)n([C@H]2C[C@H](O)[C@@H](CO)S2)cc1C1CCCC1,E6SM,>1200 µM
Nc1nc(Cl)c2ncn(C[C@H]3CC[C@@H](CO)C3)c2n1,E6SM,>1 µg/mL
Nc1ncnc2c1ncn2C[C@H](O)CO,PRK,10 µg/mL
Nc1ncnc2c1ncn2[C@@H]1O[C@H](C#CCl)[C@@H](O)[C@H]1O,E6SM,70 µM
Nc1nc(Cl)c2nnn(C[C@H]3CC[C@@H](CO)C3)c2n1,E6SM,>200 µg/mL
Nc1nccc2c1ncn2[C@@H]1C[C@H](CO)[C@@H](O)[C@H]1O,CV-1,>400 µg/mL
Nc1ncnc2c1c(Br)cn2[C@@H]1O[C@H](CO)[C@@H](O)[C@H]1O,PRK,0.07 µg/mL

Repeating the first 2 entries:

SMILES | cells | value
C[C@H](Cn1cnc2c(N)ncnc21)OCP(=O)(O)O |  | >525 µM
C[C@H]1C[C@@H](n2cnc3c(N)ncnc32)[C@H](O)[C@@H]1O | E6SM | 0.7 µg/mL